From PMC3307029
For at least one entry, the source does not settle the construct or the ends of the probe. For part of these data: At least one verdict was read from the data and is not stated in words by the source.

Experiments:
Experiment in all cases: EMSA
[1] = test system: E2-C (prototype) (Human papillomavirus type 2 (prototype)); conditions: much stronger than E2-HC and E2-FL; 10 mM Tris, 50 mM KCl, 1 mM DTT, pH 7.5, room temperature, 20 min, 20 ul; 6.5% native PAGE; recombinant protein; protein details: GST; label: biotin
[2] = test system: E2-HC (prototype) (Human papillomavirus type 2 (prototype)); conditions: weaker than A338V and than E2-C; 10 mM Tris, 50 mM KCl, 1 mM DTT, pH 7.5, room temperature, 20 min, 20 ul; 6.5% native PAGE; recombinant protein; protein details: GST; label: biotin
[3] = test system: E2-FL (prototype) (Human papillomavirus type 2 (prototype)); conditions: weaker than A338V and than E2-C; 10 mM Tris, 50 mM KCl, 1 mM DTT, pH 7.5, room temperature, 20 min, 20 ul; 6.5% native PAGE; recombinant protein; protein details: GST; label: biotin

Measured: binding result

GGCGTAACCGAAATCGGTTGAACCGAAACCGGTT (double strand) [HPV-16 prototype LCR oligo]
binds: all assays above
